{"source": "patent US6605426B1", "about": "“Compounds, methods of screening, and in vitro and in vivo uses involving anti-apoptotic genes and anti-apoptotic gene products” (priority 1998, dated 2003)", "molecules": {"B1": {"name": "pUL37Smyc: pUL37S fused at its C-terminus with a c-myc-epitope tag; constitutively expressed in HeLa/UL37x1#3 cells (protein)", "chain": "MSPVYVNLLGSVGLLAFWYFSYRWIQRKRLEDPLPPWLRKKKACALTRRSRHRLRRQHGVIDGENSETERSVDLVAALLAEAGEESVTEDTEREDTEEEREDEEEENEARTPEVNPIDAEGLSGLAREACEALKKALRRHRFLWQRRQRARMLQHNGPQQSHQ"}}, "test_system": "mitochondria of HeLa cells", "assay": "Intracellular localization by immunofluorescence and immunoelectron microscopy", "assay_type": "cell-based, human", "data": [{"molecule": "B1", "values": [{"measurement": "subcellular association by immunoelectron microscopy", "setting": "HeLa/pUL37Smyc cells", "result": "associated mainly with the outer mitochondrial membrane"}, {"measurement": "co-localization with mitochondrial markers", "setting": "immunofluorescence, 9E10 anti-myc antibody, transiently transfected HeLa cells", "result": "localized predominantly to mitochondria"}]}]}
